Measurements: patent EP0173480A2, “The antiviral use of phyllanthostatins” (priority 1984, dated 1986)
Where two headings read alike, the source gives them in different places. The amount applied is not stated for every result.

Key:
Type in all cases: cell-based
[1] = test system: herpes simplex virus type 1 (HSV-1, McIntyre); experiment: Inhibition of virus replication, virus yield by plaque method
coxsackie A21 = test system: coxsackie A21
[2] = test system: VSV (vesicular stomatitis virus)
[3] = test system: herpes simplex virus type 2 (HSV-2, MS); experiment: Inhibition of virus replication, virus yield by plaque method
[4] = therapeutic index with ID50 Vero 72 hrs.
[5] = therapeutic index with ID50 Vero 91 hrs.

Compound	times less inhibitory than phyllanthoside or phyllanthostatin I ([1]; HSV-1, from ED90 values)	T - ID50/ED90, McIntyre [1, 4]	T - ID50/ED90, McIntyre [1, 5]	T - ID50/ED90, Col (coxsackie A21; [4])	T - ID50/ED90, Col (coxsackie A21; [5])	T - ID50/ED90, VSV [2, 4]	T - ID50/ED90, VSV [2, 5]	times less inhibitory than phyllanthoside or phyllanthostatin I ([3]; HSV-2, from ED90 values)	T - ID50/ED90, MS [3, 4]	T - ID50/ED90, MS [3, 5]
COC(=O)C1CCC2C(C1)OC1(CC(OC(=O)/C=C/c3ccccc3)C(C)CO1)C21CO1 (centres unmarked) [Phyllanthocin]	2-3	0.8279	0.9931	0.0957	0.1148	0.6818	0.8178	2-3	0.7393	0.8867
Phyllanthostatin I	–	0.5105	1.5310	–	–	–	–	–	0.7399	2.2193
